Measured values from several laboratories, pooled; numbers as filed in NIAID ChemDB.

Common to all: tests in culture; organism: Cryptococcus neoformans

An empty or dashed field is not shown.

Nc1[nH]c(=O)ncc1F ; measure: MIC50 ; strain or isolate: 15 isolates ; result: 2 µg/mL
Oc1ccccc1N=Cc1ccc(F)cc1 ; read by: broth dilution ; measure: MIC ; strain or isolate: 28JF ; result: 11.3 µg/mL
CCn1cc(C(=O)O)c(=O)c2cc(F)c(N3CCNCC3)cc21 ; measure: MIC ; result: 4.88 µg/mL
C[C@@H](N1CCN(c2ccc(F)cc2)C1=O)C(O)(Cn1cncn1)c1ccc(F)cc1F ; measure: MIC ; strain or isolate: TIMM1855 ; result: 0.13 µg/mL
CCn1cc(C(=O)O)c(=O)c2cc(F)c(N3CCN(CN4C(=O)/C(=N\c5ncc(Cc6cc(OC)c(OC)c(OC)c6)c(N)n5)c5cc(Cl)ccc54)CC3)cc21 ; measure: MIC ; result: 0.6 µg/mL
CCC(C)C#Cc1c(C)nc(N)nc1N ; measure: MIC ; result: 0.2 µg/mL
C[C@H]1[C@H](O)[C@@H](C)/C=C/C=C/C=C/C=C/C=C/C=C/C=C/[C@H](O[C@@H]2O[C@H](C)[C@@H](O)[C@H](N)[C@@H]2O)C[C@@H]2O[C@](O)(C[C@@H](O)C[C@@H](O)CC[C@H](O)[C@@H](O)C[C@@H](O)CC(=O)O[C@H]1C)C[C@H](O)[C@H]2C(=O)O ; measure: MIC ; strain or isolate: TIMM1855 ; result: 0.39 µg/mL
Cc1nc(N)nc(N)c1C#CC(C)(C)C ; measure: MIC ; result: 0.2 µg/mL
COc1ccc2c(c1)CCN1C(NCCCCCCC(C)C)NCCC21 ; measure: MIC ; strain or isolate: NFI3102 ; result: 2 µg/mL
C=C1CC[C@@H]2C(C)(C)CCC[C@@]2(C)[C@@H]1CC/C(C)=C/Cn1c[n+](C)c2ncnc(NO)c21 ; read by: resazurin ; measure: MIC ; strain or isolate: ATCC 90113 ; result: 10 µg/mL
CCOC(=O)c1c(C)nc(NCCCCNc2ccnc3cc(Cl)ccc23)nc1-c1ccc(F)cc1 ; measure: MIC99 ; strain or isolate: C-3-1 ; result: 2 µg/mL
CO[C@@H]1[C@H]2OC(C)(C)O[C@H]2O[C@@H]1C1=NOC(Cc2ccc(O)cc2)C1 ; measure: MIC ; result: 12.5 µg/mL
CCOC(=O)c1c(C)nc(NCCCCNc2ccnc3cc(Cl)ccc23)nc1-c1ccccc1 ; measure: MIC99 ; strain or isolate: F-10 ; result: 4 µg/mL
C[C@@H](n1ccn(-c2ccc(OCC(F)(F)C(F)F)cc2)c1=O)C(O)(Cn1cncn1)c1ccc(F)cc1F ; measure: MIC ; strain or isolate: TIMM1855 ; result: 0.13 µg/mL
C=C(CCCCCNC1NCCC2c3ccccc3CCN12)C(C)C ; measure: MIC80 ; strain or isolate: NFI3102 ; result: 2 µg/mL
CCn1cc(C(=O)O)c(=O)c2cc(F)c(N3CCN(CN4C(=O)/C(=N\c5ncc(Cc6cc(OC)c(OC)c(OC)c6)c(N)n5)c5ccccc54)CC3)cc21 ; measure: MIC ; result: 2.44 µg/mL
OC(CN=C1CCN(CCCOc2ccccc2)CC1)(Cn1cncn1)c1ccc(F)cc1F ; measure: MIC80 ; result: >136 µM
C[C@@H](N1CCN(Cc2cn(Cc3ccc(F)cc3)c3ccccc23)CC1)[C@](O)(Cn1cncn1)c1ccc(F)cc1F ; read by: resazurin ; measure: MIC80 ; strain or isolate: ATCC 36556 ; result: >128 µg/mL
C[C@@H](n1ccn(-c2ccc(OC(F)(F)F)cc2)c1=O)C(O)(Cn1cncn1)c1ccc(F)cc1F ; measure: MIC ; strain or isolate: TIMM1740 ; result: 0.03 µg/mL
CN(CCCCOc1ccccc1)CC(O)(Cn1cncn1)c1ccc(F)cc1F ; measure: MIC80 ; result: 0.15 µM
C[C@@H](N1CCN(c2ccc(OCC(F)(F)C(F)F)cc2)C1=O)C(O)(Cn1cncn1)c1ccccc1F ; measure: MIC ; strain or isolate: TIMM1740 ; result: <0.016 µg/mL
Oc1ccccc1N=Cc1ccc2c(c1)OCO2 ; measure: MIC99 ; strain or isolate: ATCC 24067 ; result: 4 µg/mL
CCn1cc(C(=O)O)c(=O)c2cc(F)c(N3CCN(CN4C(=O)C(=Nc5ccc(S(=O)(=O)Nc6ncccn6)cc5)c5cc(Br)ccc54)CC3)cc21 ; measure: MIC ; result: 2.44 µg/mL
COc1ccc2c(c1)CCN1C(NCCCCCC=C(C)C)NCCC21 ; measure: MIC ; strain or isolate: NFI3102 ; result: 32 µg/mL
Oc1ccccc1C=Nc1ccccc1O ; measure: MIC99 ; strain or isolate: 96806 ; result: 8 µg/mL
CCC(C)n1ncn(-c2ccc(N3CCN(c4ccc(OC[C@H]5CO[C@](Cn6cncn6)(c6ccc(Cl)cc6Cl)O5)cc4)CC3)cc2)c1=O ; measure: MIC50 ; result: 0.0059 µg/mL
COc1ccc(CC2CC([C@H]3O[C@@H]4OC(C)(C)O[C@@H]4[C@H]3OCc3ccccc3)=NO2)cc1 ; measure: MIC ; result: 25 µg/mL
Oc1ccccc1N=Cc1cccc(O)c1O ; measure: MIC99 ; strain or isolate: 27JF ; result: 5.7 µg/mL
OC(CN=C1CCN(CCCCOc2ccccc2)CC1)(Cn1cncn1)c1ccc(F)cc1F ; measure: MIC80 ; result: >132 µM
COC(=O)C1C(O)CC2(O)CC(O)CC(O)CC(O)CC(O)CC(=O)CC(O)CC(=O)OC(C(C)CCC(O)CC(=O)c3ccc(N)cc3)C(C)/C=C/C=C/C=C/C=C/C=C/C=C/C=C/C(O[C@@H]3O[C@H](C)[C@@H](O)[C@H](N)[C@@H]3O)CC1O2 ; measure: MIC ; strain or isolate: 5 isolates ; result: 0.125–0.25 µg/mL
CCCCCCCCCCCCCCCCOP(=O)([O-])OCC[N+](C)(C)C ; measure: MIC50 ; result: 0.5 µg/mL
CCOC1CC([C@H]2O[C@@H]3OC(C)(C)O[C@@H]3[C@H]2OC)=NO1 ; measure: MIC ; result: 25 µg/mL
C[C@@H](N1CCN(Cc2cn(-c3ccc(F)cc3)c3cc(Cl)ccc23)CC1)[C@](O)(Cn1cncn1)c1ccc(F)cc1F ; read by: resazurin ; measure: MIC80 ; strain or isolate: ATCC 36556 ; result: >128 µg/mL
OC(CN1CCCN(CCCOc2ccccc2)C1)(Cn1cncn1)c1ccc(F)cc1F ; measure: MIC80 ; result: 140 µM
C[C@@H](n1ccn(-c2ccc(OC(F)(F)C(F)F)cc2)c1=O)C(O)(Cn1cncn1)c1ccccc1F ; measure: MIC ; strain or isolate: TIMM1855 ; result: 0.13 µg/mL
C[C@@H](N1CCN(Cc2cn(Cc3ccc(F)cc3F)c3ccccc23)CC1)[C@](O)(Cn1cncn1)c1ccc(F)cc1F ; read by: resazurin ; measure: MIC80 ; strain or isolate: ATCC 36556 ; result: >128 µg/mL
CCn1cc(C(=O)O)c(=O)c2cc(F)c(N3CCN(CN4C(=O)C(=Nc5ccc(S(=O)(=O)Nc6ncccn6)cc5)c5cc(Cl)ccc54)CC3)cc21 ; measure: MIC ; result: 2.44 µg/mL
Cc1nc(N)nc(N)c1C#Cc1ccccc1 ; measure: MIC ; result: 0.4 µg/mL
S=C=NCCCCCCCN=C=S ; read by: visual reading ; measure: MIC ; strain or isolate: CNH99 ; result: <1 µg/mL
OC(CN=C1CCN(CCCCCOc2ccccc2)CC1)(Cn1cncn1)c1ccc(F)cc1F ; measure: MIC80 ; result: >129 µM
CC1(C)O[C@H]2[C@@H](O1)[C@@H](C1=NOC(CO)C1)O[C@@H]1OC(C)(C)O[C@@H]12 ; measure: MIC ; result: 12.5 µg/mL
C[C@@H](N1CCN(Cc2cn(Cc3ccc(Cl)cc3)c3c(F)cccc23)CC1)[C@](O)(Cn1cncn1)c1ccc(F)cc1F ; read by: resazurin ; measure: MIC80 ; strain or isolate: ATCC 36556 ; result: >128 µg/mL
CCCCCCCCNC1NCCC2c3ccc(OC)cc3CCN12 ; measure: MIC ; strain or isolate: NFI3102 ; result: 8 µg/mL
C=CCc1ccc(Cn2cc(CN3CCN([C@H](C)[C@](O)(Cn4cncn4)c4ccc(F)cc4F)CC3)c3ccccc32)cc1 ; read by: resazurin ; measure: MIC80 ; strain or isolate: ATCC 36556 ; result: >128 µg/mL
CCOC(=O)c1cnc(NCCCCNc2ccnc3cc(Cl)ccc23)nc1C ; measure: MIC99 ; strain or isolate: 96806 ; result: 45.3 µg/mL
CC(O)Cn1cc(CN2CCN([C@H](C)[C@](O)(Cn3cncn3)c3ccc(F)cc3F)CC2)c2cccc(Cl)c21 ; read by: resazurin ; measure: MIC80 ; strain or isolate: ATCC 36556 ; result: >128 µg/mL
CCC(C)n1ncn(-c2ccc(N3CCN(c4ccc(OC[C@@H]5CO[C@@](Cn6cncn6)(c6ccc(F)cc6F)O5)cc4)CC3)cc2)c1=O ; measure: MIC50 ; strain or isolate: 9 strains ; result: ≤0.015 µg/mL
Cc1nc(N)nc(N)c1C#CC(C)C ; measure: MIC ; result: 1.6 µg/mL
CCC/C=C/C=C/C=C/C(=O)OCC1O[C@@H](OC2C(CO)O[C@]3(OCc4cc(O)cc(O)c43)[C@H](O)[C@H]2OC(=O)/C=C/C=C/CC(O)/C=C/C=C/C=C/CCC)[C@H](O)[C@@H](O)[C@H]1O ; measure: MIC ; strain or isolate: D49 ; result: >100 µg/mL

The last 3 rows once more:

compound	read by	measure	strain or isolate	result
CCC(C)n1ncn(-c2ccc(N3CCN(c4ccc(OC[C@@H]5CO[C@@](Cn6cncn6)(c6ccc(F)cc6F)O5)cc4)CC3)cc2)c1=O	-	MIC50	9 strains	≤0.015 µg/mL
Cc1nc(N)nc(N)c1C#CC(C)C	-	MIC	-	1.6 µg/mL
CCC/C=C/C=C/C=C/C(=O)OCC1O[C@@H](OC2C(CO)O[C@]3(OCc4cc(O)cc(O)c43)[C@H](O)[C@H]2OC(=O)/C=C/C=C/CC(O)/C=C/C=C/C=C/CCC)[C@H](O)[C@@H](O)[C@H]1O	-	MIC	D49	>100 µg/mL

Conditions beyond the fields shown may differ between rows. MIC50, MIC90 and the like: level of inhibition, or share of isolates inhibited. Two numbers with a dash give a range or band.